Patent US20250115889

Columns and labels:
Assay in all cases: column 'Multimer [yes/no]'; self-association
KDAK1nK-4S-AVQP = system: KDAK1nK-4S-AVQP
KDcAK1nK-4S-AVQP = system: KDcAK1nK-4S-AVQP
KKDAK1nKK = system: KKDAK1nKK

**Q.** KDAK1nK-4S-AVQP was tested. Which result (KDAK1nK-4S-AVQP) did it give?
**A.** no binding

**Q.** Which result (KDcAK1nK-4S-AVQP) does the source give for KDcAK1nK-4S-AVQP here?
**A.** no binding

**Q.** For KKDAK1nKK, which result (KKDAK1nKK) is on record?
**A.** binds
